Anti-infective test results gathered from many reports (values: NIAID ChemDB through PubChem).

Shared fields: growth or infection tests; organism: HIV-1; method: p24; read-out: inhibition

Percent inhibition refers to the dose given; in toxicity tests it is the harm to the cells. An empty or dashed field is not shown. Rows are shuffled and stem from different studies.

SMILES	mutations	cells	strain	conditions	tested at	result
Cc1cn([C@H]2C[C@H](N=[N+]=[N-])[C@@H](CO)O2)c(=O)[nH]c1=O		MT-4	IIIB		0.0078 µM	73.62%
O=C(NCc1ccc(F)cc1)c1nc(N2CCCCS2(=O)=O)c2cccnc2c1O		PBMC	89.6		0.009 µM	95%
NC(N)=NCCC[C@H](N)C(=O)NCC(=O)N1CCC[C@H]1C(=O)NCC=O		H9	IIIB		25 µg/mL	51.2%
Cn1cnc2c(NCc3ccccc3)nc(NCCO)nc21		PBMC	UG/92/029 SI CLADE A		10 µM	20%
CC(C)[C@H](NC(=O)c1ccccn1)C(=O)N[C@@H](Cc1ccccc1)[C@H](O)[C@H](O)[C@H](Cc1ccccc1)NC(=O)[C@@H](NC(=O)c1ccccn1)C(C)C	PR-I84V	MT-4	NL4-3		48 µM	90%
O[C@H]1OC[C@H](Cc2ccc3c(c2)OCO3)[C@H]1Cc1ccc2c(c1)OCO2		H9	IIIB		12.7 µM	91%
Nc1nc(NC2CC2)c2ncn([C@H]3C=C[C@@H](CO)C3)c2n1	RT-M184V	PBMC	M184V		4 µM	63%
COc1ccc(C[C@H]2COC(=O)[C@@H]2Cc2ccc(O[C@@H]3O[C@H](CO)[C@@H](O)[C@H](O)[C@H]3O)c(OC)c2)cc1OC		H9	IIIB		5 µM	96%
c1cc(CN2CCCNCCNCCCNCC2)ccc1CN1CCCNCCNCCCNCC1		PBMC	IIIB X4 laboratory isolate		0.28 µM	100%
Cc1ccc(-c2ccc3c(c2)C=C(C(=O)Nc2ccc(C[N+](C)(C)C4CCOCC4)cc2)CCC3)cc1		PBMC	KK		0.0208 µM	90%
c1cc(CN2CCCNCCNCCCNCC2)ccc1CN1CCCNCCNCCCNCC1		PBMC	SW20 CLADE C R5X4		0.5 µM	100%
CCc1cc(NCc2nc3c(Cl)ccc(Cl)c3o2)c(=O)[nH]c1C		MT-4	RF		0.05 µM	95%
NC(N)=NCCC[C@@H](C=O)NC(=O)CNC(=O)[C@@H]1CCCN1C(=O)CNC(=O)[C@@H](N)CCCN=C(N)N		HUT	ELI		250 µg/mL	0%
Cc1cn([C@H]2C[C@H](N=[N+]=[N-])[C@@H](CO)O2)c(=O)[nH]c1=O		PBMC	JR-CSF		0.003 µM	76.5%
CC(C)=CCOc1cc(NC(=S)c2ccoc2C)ccc1Cl		PBMC	92US657 Clinical isolate		0.01422 µg/mL	95%
COc1ccccc1-c1noc(=O)n1-c1cccc(C(F)(F)F)c1		MDM	NLHXADA R5 recombinant wild type		1 µM	90%
COc1ccc2cc1Oc1ccc(cc1)C[C@H]1c3c(cc4c(c3Oc3cc5c(cc3OC)CCN(C)[C@@H]5C2)OCO4)CCN1C		U1/HIV-1 (+PMA 10 ng/mL) + U1		chronic infection	0.04 µg/mL	73.8%
O=C1OC(C2OC(=O)c3cc(O)c(O)c(O)c3-c3c(O)c(O)c4oc(=O)c5c(c(O)c(O)c6oc(=O)c3c4c65)-c3c(cc(O)c(O)c3O)C(=O)OCC2O)C2OC(=O)c3c(c(O)c(O)c(O)c3C2O)-c2c1cc(O)c(O)c2O		H9	IIIB		1 µg/mL	50%
CCC(c1cc(=O)[nH]c(SC(C)C)n1)c1c(F)cccc1F		MT-4	IIIB		0.09 µM	99.9%
CCCCN(C(=O)OCc1ccccc1)C1CCN(CCC(CN(C)S(=O)(=O)c2ccccc2)c2ccccc2)CC1		PBMC	YU2		13 µM	<95%
C[C@H](Cn1cnc2c(N)ncnc21)OCP(=O)(O)O		Macrophage + Monocytes/macrophages	BaL		0.005 µM	17%
CC(C)(C)NC(=O)[C@@H]1CN(Cc2cccnc2)CCN1C[C@@H](O)C[C@@H](Cc1ccccc1)C(=O)N[C@H]1c2ccccc2C[C@H]1O		MT-2	NL4-3 WT		0.1 µM	99.87%
CCCCCN1CC[C@@H](c2ccc(F)cc2)[C@H](COc2ccc3c(c2)OCCO3)C1		MOLT-3	IIIB		4 µg/mL	17%
COc1ccc(CN[C@@H](C(=O)N[C@H](C(=O)NCc2nc3ccccc3[nH]2)C(C)C)[C@H](O)[C@H](Cc2ccccc2)NC(=O)[C@@H](NC(=O)OCc2ccccc2)C(C)(C)C)cc1		Monocytes + Monocyte	SF162	clinical isolate	0.046 µM	90%
O=S(=O)(O)c1cc(N=C=S)ccc1CCc1ccc(N=C=S)cc1S(=O)(=O)O		JM	GB8		25 µg/mL	57%
O=C(O)c1cc(SSc2ccc([N+](=O)[O-])c(C(=O)O)c2)ccc1[N+](=O)[O-]		H9	IIIB		2500 µM	99.9%
CCc1cc(NCc2nc3c(Cl)ccc(Cl)c3o2)c(=O)[nH]c1C	RT-M41L T215Y/F	PBMC	Clinical isolate (RT M41L T215Y/F)		0.05 µM	90%
CCCCN1C[C@H](O)[C@@H](O)[C@H](O)[C@H]1CO		H9			2000 µM	88%
Nc1nc2c(ncn2[C@@H]2C[C@H](CO)[C@H]2CO)c(=O)[nH]1		MOLT-4	IIIB		75 µM	90%
CNCCC=C1c2ccccc2CCc2ccccc21		MOLT-3	IIIB		5 µg/mL	0%
CN/C(=C\[N+](=O)[O-])NCCSCc1ccc(CN(C)C)o1		MT-4			1000 µM	80%
C[C@@H](Cn1cnc2c(N)ncnc21)OCP(=O)(O)O		Macrophage + Monocytes/macrophages	BaL		0.5 µM	20%
O=c1c(O)c(-c2ccc(O)c(O)c2)oc2cc(O)cc(O)c12		PBMC			40 µM	80%
CC(C)C[C@H](NC(=O)[C@H](Cc1ccccc1)C[C@H](O)[C@H](Cc1ccccc1)NC(=O)OC(C)(C)C)C(=O)N[C@@H](Cc1ccccc1)C(N)=O		MT-4	IIIB		6 µM	95%
Cc1cn([C@H]2C[C@H](N=[N+]=[N-])[C@@H](CO)O2)c(=O)[nH]c1=O		PBMC	RF		0.125 µM	100%
CN=C1CN=C(c2ccc[nH]2)c2cc(Cl)ccc2N1		CEM/1(N1T-E) + CEM	N1T-E	chronic infection	0.8 µM	90%
Cc1cn([C@H]2C[C@H](N=[N+]=[N-])[C@@H](CO)O2)c(=O)[nH]c1=O		MT-4	IIIB		0.04 µM	65%
O=c1[nH]cnc2c1ncn2[C@H]1CC[C@@H](CO)O1		PBMC	IIIB		2 µM	<20%
CC(C)Nc1cccnc1N1CCN(C(=O)c2ccc(-c3ccc(NS(C)(=O)=O)cc3)[nH]2)CC1		MT-4	IIIB		0.8 µM	90%
Cn1cc(C(=O)O)c(=O)c2cc(F)c(N3CC=C(c4ccccc4)CC3)c(C(F)(F)F)c21		MOLT-4/U1(HIV-1(IIIB)) + MOLT-4	IIIB		1.4 µM	90%
CCC(C)[C@H](NC(=O)[C@H](C(C)C)[C@@H](O)[C@H](O)[C@H](CC1CCCCC1)NC(=O)c1ccccc1SCCCCC[C@@H]1SC[C@@H]2NC(=O)NC21)C(=O)NCc1ccccn1		PBMC	D34		0.1 µM	83%
COc1ccc(OC[C@@H]2CNCC[C@H]2c2ccccc2)cc1		MOLT-3	IIIB		4 µg/mL	7%
COc1cc(C[C@@](O)(C(N)=O)[C@H](CO)Cc2ccc(OC)c(OC)c2)ccc1O		H9	IIIB		1.8 µM	84%
CC1(C)Oc2ccc3ccc(=O)oc3c2[C@@H](OC(=O)C23CCC(C)(C(=O)O2)C3(C)C)[C@H]1OC(=O)C12CCC(C)(C(=O)O1)C2(C)C		Monocytes		17 d	0.000016 µM	76%
C[C@H]1/C=C/[C@@]2(C)CC[C@@H](C(C)(C)O)[C@@H]2[C@@H](O)C[C@](C)(O)/C=C/C1		PBMC	95BRRJ021 R5		25 µM	94%
CC(C)(C)NC(=O)[C@@H]1C[C@@H]2CCCC[C@@H]2CN1C[C@@H](O)[C@H](Cc1ccccc1)NC(=O)[C@H](CC(N)=O)NC(=O)c1ccc2ccccc2n1	PR-G48V	MT-2	HXB2		0.02 µM	90%
COc1cc(C[C@H]2C(=O)OC[C@@H]2Cc2ccc(OC)c(OC)c2)ccc1O		H9	IIIB		0.13 µM	95%
O=C(Nc1ncc[nH]1)c1cccc(CN2C(=O)N(Cc3cccc(C(=O)Nc4ncc[nH]4)c3)[C@H](Cc3ccccc3)[C@H](O)[C@@H](O)[C@H]2Cc2ccccc2)c1		MT-2	RF		0.0019 µM	90%
OCCN1CCN(CC/C=C2\c3ccccc3Sc3ccc(C(F)(F)F)cc32)CC1		MOLT-3	IIIB		10 µg/mL	67%
Cc1cn([C@H]2C[C@H](N=[N+]=[N-])[C@@H](CO)O2)c(=O)[nH]c1=O		PBMC	BaL		0.01 µM	80%
Cc1cn([C@H]2C[C@H](N=[N+]=[N-])[C@@H](CO)O2)c(=O)[nH]c1=O		C8166	IIIB		0.08 µg/mL	85.7%
CCC(c1cc(=O)[nH]c(SC2CCCC2)n1)c1c(F)cccc1F		MT-4	IIIB		0.083 µM	99%
NCC(=O)N1CCC[C@H]1C(=O)NCC(=O)NCC=O		H9	IIIB		250 µg/mL	85.4%
O=c1[nH]cc(F)c(=O)[nH]1		PBMC	ERS104pre		1 µM	23%
Cc1cn([C@H]2C[C@H](N=[N+]=[N-])[C@@H](CO)O2)c(=O)[nH]c1=O		Macrophage + Monocytes/macrophages	Primary clinical isolate Rome		3.7 µM	62%
COc1cc(C[C@H](C)[C@H](C)Cc2ccc(O)c(O)c2)ccc1O		PBMC	JR-CSF		0.2 µg/mL	90%
Cc1c(Cc2c(F)cccc2F)nc(SC(C)C)[nH]c1=O		MT-4	IIIB		0.15 µM	99.9%
Cc1c(N)nc([C@H](CC(N)=O)NC[C@H](N)C(N)=O)nc1C(=O)N[C@H](C(=O)N[C@H](C)[C@@H](O)[C@H](C)C(=O)N[C@H](C(=O)NCCc1nc(-c2nc(C(=O)NCCC[S+](C)C)cs2)cs1)[C@@H](C)O)C(O[C@@H]1O[C@@H](CO)[C@@H](O)[C@H](O)[C@@H]1O[C@H]1O[C@H](CO)[C@@H](O)[C@H](OC(N)=O)[C@@H]1O)c1cnc[nH]1		PBMC	BaL		0.7 µM	22%
CN=C(NC#N)NCCSCc1nc[nH]c1C		MT-4	IIIB		10 µM	100%
COC(=O)[C@@H]1C2CCC(C[C@@H]1OC(=O)c1ccccc1)N2C		ACH-2 + ACH2	IIIB		25 µg/mL	<0%
CC(C)[C@H](NC(=O)N(C)Cc1ccccn1)C(=O)N[C@@H](Cc1ccccc1)[C@H](O)[C@H](O)[C@H](Cc1ccccc1)NC(=O)[C@@H](NC(=O)N(C)Cc1ccccn1)C(C)C		MT-4	NL4-3		1 µM	90%
O=CCNC(=O)[C@@H]1CCCN1		H9	IIIB		25 µg/mL	62.1%
COc1cc(C[C@H]2C(=O)OC[C@@H]2Cc2ccc(OC)c(OC)c2)ccc1O		PBL	IIIB		0.3 µg/mL	90%

The last 4 rows once more:

SMILES | mutations | cells | strain | conditions | tested at | result
COC(=O)[C@@H]1C2CCC(C[C@@H]1OC(=O)c1ccccc1)N2C |  | ACH-2 + ACH2 | IIIB |  | 25 µg/mL | <0%
CC(C)[C@H](NC(=O)N(C)Cc1ccccn1)C(=O)N[C@@H](Cc1ccccc1)[C@H](O)[C@H](O)[C@H](Cc1ccccc1)NC(=O)[C@@H](NC(=O)N(C)Cc1ccccn1)C(C)C |  | MT-4 | NL4-3 |  | 1 µM | 90%
O=CCNC(=O)[C@@H]1CCCN1 |  | H9 | IIIB |  | 25 µg/mL | 62.1%
COc1cc(C[C@H]2C(=O)OC[C@@H]2Cc2ccc(OC)c(OC)c2)ccc1O |  | PBL | IIIB |  | 0.3 µg/mL | 90%